The assay deals with Escherichia coli strain resistant to ciprofloxacin. To be noted: up to 10.00 μg/ml, 40 minutes.

For the molecule `O=C(O)c1cn(C2CC2)c2cc(N3CCNCC3)c(F)cc2c1=O` [Ciprofloxacin, ciprofloxacin], the “effect detected by the vital stain (in words)” value is “did not detect any effect”.

These data come from US9212391B2, “Method for determining DNA fragmentation in microorganisms” (Universidad Autonoma de Madrid, priority 2006, dated 2015).
